Reference: PubChem BioAssay AID504761 (Drosophila RNAi Screening Center, 2011)
The deposit covers about 22,000 reagents; shown is a random part of those that have a named target and a result. In the full data, 116 (0.52%) were called active. 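Calls depend on retest data that are not deposited; infection was ranked per plate without normalising between plates; the unit of the infection score is not given.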 Raw values are not corrected between plates. Names joined by + are all predicted targets of the reagent. Not given: the amount of reagent, the time to read-out.

Purpose: 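Insect host genes that dengue virus relies on to spread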 (primary screen)
Cells: D.Mel-2 cells from Drosophila
Knock-down reagent: long dsRNA against Drosophila genes
Conditions: infection with dengue virus type 2; dose and infection time not stated
Detection: 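Per well on two replicate plates, imaging gave the percent of cells positive for viral envelope protein, ranked by infection, and a nuclear count of cells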
Reading the numbers: infection score: higher = more virus-infected cells; cell count: higher = more cells in the well
Hit rule: 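Very low infection ranking in both replicate wells (chance probability at most 0.065), then a retest showing infection dropped 1.5-fold or more at p below 0.05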
Meaning of the calls: active = confirmed: knock-down lowers infection; inactive = not picked or not confirmed

no.	Target gene	amplicon	infection score, replicate 1	infection score, replicate 2	cell count, replicate 1	cell count, replicate 2	Outcome
1	CG5644	DRSC10531	1.31	3.05	6555	6464	inactive
2	CG9517 (retired record)	DRSC20192	1.21	1.81	6292	6642	inactive
3	CG9517 (retired record)	DRSC20193	1.15	3.16	6348	6844	inactive
4	CG9517 (retired record)	DRSC23550	4.59	1.91	6661	6821	inactive
5	CG14073	DRSC10078	5.77	1.21	6932	7017	inactive
6	CG14073	DRSC27001	4.26	4.7	6483	6430	inactive
7	IKKbeta (I-kappaB kinase beta)	DRSC16714	19.1	20.2	6011	6931	inactive
8	Ssl1 (Suppressor of stem-loop mutation)	DRSC11634	9.15	5.99	2941	6464	inactive
9	CG17005	DRSC02556	9.39	18.8	4612	5275	inactive
10	CG30091	DRSC21809	1.78	6.21	6793	6681	inactive
11	CG30091	DRSC27799	10.4	10.9	6321	6665	inactive
12	CycT (Cyclin T)	DRSC11124	12.6	19.8	1554	1564	inactive
13	CycT (Cyclin T)	DRSC23304	1.23	2.18	6243	5417	inactive
14	CycT (Cyclin T)	DRSC29416	25.2	9.82	2977	835	inactive
15	Wnt6 (Wnt oncogene analog 6)	DRSC02795	10.7	14.4	5426	5874	inactive
16	Wnt6 (Wnt oncogene analog 6)	DRSC26973	10.3	9.35	6558	6720	inactive
17	Helz (Helicase with zinc finger)	DRSC11072	5.19	2.39	6664	6681	inactive
18	coro (Coronin)	DRSC05007	17.1	44.6	6343	5314	inactive
19	coro (Coronin)	DRSC21417	2.63	1.63	6161	6275	inactive
20	CG5762	DRSC15869	3.04	3.15	6835	6258	inactive
21	Mob3 (MOB kinase activator 3)	DRSC02791	3.67	1.51	6861	6543	inactive
22	CG31777	DRSC00201	2.86	3.76	5877	5641	inactive
23	Bet1 (Blocked early in transport 1)	DRSC10088	2.07	3.73	6583	5845	inactive
24	Snx1 (Sorting nexin 1)	DRSC00531	6.99	31.2	6491	5979	inactive
25	CG4553	DRSC15595	9.93	28.8	6222	4962	inactive
26	CG4553	DRSC28957	8.46	14.8	2590	4849	inactive
27	CG13946	DRSC00364	2.69	13.1	6582	6547	inactive
28	Tsp97E (Tetraspanin 97E)	DRSC16019	2.04	9.57	6970	6207	inactive
29	Tsp97E (Tetraspanin 97E)	DRSC28053	21.8	15.3	4527	4119	inactive
30	Cyp316a1 (Cytochrome P450 316a1)	DRSC11130	4.9	1.5	6158	5856	inactive
31	Cyp316a1 (Cytochrome P450 316a1)	DRSC29059	6.2	8.2	5270	5855	inactive
32	CG32797	DRSC25152	13.1	2.82	6331	5884	inactive
33	mirr (mirror)	DRSC11369	0.7	2.69	5723	6165	inactive
34	mirr (mirror)	DRSC25450	3.87	4.86	6001	6189	inactive
35	mag (magro)	DRSC11787	1.03	22	580	3956	inactive
36	mag (magro)	DRSC25641	1.72	4.77	6403	5659	inactive
37	CG6674	DRSC10692	8.04	6.33	6381	6651	inactive
38	Scamp	DRSC20286	4.8	3.06	6355	6794	inactive
39	Scamp	DRSC29752	2.39	4.57	6524	6106	inactive
40	Smyd3 (SET and MYND domain containing, class 3)	DRSC17744	2.96	0.75	877	6922	inactive
41	Smyd3 (SET and MYND domain containing, class 3)	DRSC26723	6.39	7.4	5713	6450	inactive
42	CG1271	DRSC08290	16.7	15.1	6798	6038	inactive
43	gfzf (GST-containing FLYWCH zinc-finger protein)	DRSC12506	1.65	8.07	6169	5889	inactive
44	gfzf (GST-containing FLYWCH zinc-finger protein)	DRSC21874	7.36	5.42	6497	6584	inactive
45	frtz (fritz)	DRSC00512	7.1	17.5	6931	6185	inactive
46	kay (kayak)	DRSC13962	6.64	3.3	6518	6581	inactive
47	kay (kayak)	DRSC16977	1.5	7.95	5348	6251	inactive
48	Chd64	DRSC08649	5.9	1.69	5750	5791	inactive
49	Chd64	DRSC28823			471	411	inactive
50	CG8414	DRSC07168	2.42	15	6933	4718	inactive
51	robo3 (roundabout 3)	DRSC00374	0.92	7.33	6285	6716	inactive
52	robo3 (roundabout 3)	DRSC00684	2.55	22.4	6398	6660	inactive
53	PGRP-SC2 (Peptidoglycan recognition protein SC2)	DRSC06481	17.5	21.6	6486	4431	inactive
54	PGRP-SC2 (Peptidoglycan recognition protein SC2)	DRSC25449	1.73	3.28	6235	6585	inactive
55	CG12491 + CG34105	DRSC04008	1.22	0.67	6162	5482	inactive
56	CG12491 + CG34105	DRSC04124	4.49	7.46	6500	6796	inactive
57	CG12491 + CG34105	DRSC26465	3.23	2.14	6092	5983	inactive
58	CG1394	DRSC19539	15	6.48	6038	6512	inactive
59	CG1394	DRSC25019	3.08	6.66	6144	6055	inactive

5 entries from above, set out differently.
Target gene | amplicon | infection score, replicate 1 | infection score, replicate 2 | cell count, replicate 1 | cell count, replicate 2 | Outcome
CG9517 (retired record) | DRSC23550 | 4.59 | 1.91 | 6661 | 6821 | inactive
CG14073 | DRSC10078 | 5.77 | 1.21 | 6932 | 7017 | inactive
CG14073 | DRSC27001 | 4.26 | 4.7 | 6483 | 6430 | inactive
IKKbeta (I-kappaB kinase beta) | DRSC16714 | 19.1 | 20.2 | 6011 | 6931 | inactive
Ssl1 (Suppressor of stem-loop mutation) | DRSC11634 | 9.15 | 5.99 | 2941 | 6464 | inactive
